PubChem BioAssay AID504761 – Drosophila RNAi Screening Center | 2011
The screen tested about 22,000 reagents; this is an unselected part of those with a known target gene and a result. Of all reagents, 116 (0.52%) are marked active. 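Calls depend on retest data that are not deposited; infection was ranked per plate without normalising between plates; the unit of the infection score is not given.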 The raw values are shown without normalisation. A number with no mark means an inactive call. Reagents against one gene are numbered here. A plus sign joins genes that one reagent is predicted to hit. Not stated in the record: the amount of reagent, the time to read-out.

- Purpose: 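Genome-wide fly cell screen for genes dengue virus requires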 (primary screen)
- System: D.Mel-2 cells from Drosophila
- Reagent: long dsRNA against Drosophila genes
- Challenge: infection with dengue virus type 2; dose and infection time not stated
- Measured: 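Per well on two replicate plates, imaging gave the percent of cells positive for viral envelope protein, ranked by infection, and a nuclear count of cells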
- Direction: infection score: higher = more virus-infected cells; cell count: higher = more cells in the well
- Active means: 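Very low infection ranking in both replicate wells (chance probability at most 0.065), then a retest showing infection dropped 1.5-fold or more at p below 0.05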
- Calls: active = confirmed: knock-down lowers infection; inactive = not picked or not confirmed

gene knocked down,reagent,"infection score, replicate 1","infection score, replicate 2","cell count, replicate 1","cell count, replicate 2"
CG16719,1,7.64,8.75,6194,6285
CG13896,1,1.13,1.91,5747,6294
CG2310,1,6.04,3.71,6419,5494
CG10116,1,5.22,3.7,6530,6897
CG34382,1,1.5,4.3,6657,6329
CG34382,2,2.37,13.8,6022,6826
CG14219,1,4.63,1.18,5847,6789
CG14219,2,2.23,4.32,6586,6430
MFS14,1,3.68,3.47,6363,6965
MFS14,2,4.42,9.83,5685,5486
MtnC,1,5.49,14.4,6027,2625
CG7744,1,29.5,5.03,5928,716
CG14505,1,26.7,14.6,5412,1565
CG6689,1,23.6,13.3,5237,5710
CG6689,2,10.9,8.44,4605,4311
CG10062,1,17.9,4.46,5818,1233
CG10062,2,4.9,11,6367,6295
CG10062,3,4.2,8.43,7163,6830
CG10383,1,22.1,21.6,5902,5803
CG10383,2,,,311,317
Rsod,1,3.15,8.26,6391,4821
Mpc1,1,1.03,2.45,6396,6367
CG32204,1,0.85,1.53,5739,5943
CG32204,2,7.77,7.59,6191,5537
PH4alphaSG1,1,3.59,10.7,1169,5207
CG8206,1,1.83,1.25,6388,6472
Cpr66Cb,1,1.34,1.76,5906,6490
Prx6c + CG12896 + Prx6b,1,7.09,17.6,6434,5941
Prx6c + CG12896 + Prx6b,2,28.8,32,5969,4365
CG3163,1,26.5,34.5,5733,5451
CG3163,2,,18.8,385,6130
CG18870,1,4.82,5.67,6737,6795

Entries above whose gene name starts with M or m:
gene knocked down,reagent,"infection score, replicate 1","infection score, replicate 2","cell count, replicate 1","cell count, replicate 2"
MFS14,1,3.68,3.47,6363,6965
MFS14,2,4.42,9.83,5685,5486
MtnC,1,5.49,14.4,6027,2625
Mpc1,1,1.03,2.45,6396,6367

The list goes on.
gene knocked down,reagent,"infection score, replicate 1","infection score, replicate 2","cell count, replicate 1","cell count, replicate 2"
Syx18,1,30,6.11,5313,6380
CG14551,1,4.19,2.85,6299,6850
CG30273,1,3,2.43,6832,6696
CG30273,2,5.21,4.86,5724,6152
wit,1,11.6,14.1,5417,5740
wit,2,9.58,1.51,5949,6871
Fer1,1,7.07,2.1,5885,6338
Fer1,2,3,2.15,6073,6480
Fer1,3,6.41,1.91,6314,6183
DZIP1,1,1.59,1.61,6475,6519
CG3630,1,2.25,19.5,6458,2660
CG3630,2,11,4.46,1805,964
CR15280,1,12.7,3.24,4710,6755
CR15280,2,1.62,2.94,6225,6164
CG4409,1,7.86,19.9,6731,6190
CG4409,2,18.5,5.64,5461,5814
brv3,1,0.98,9.7,6562,5133
brv3,2,4.89,2.7,6259,6443
CG31949,1,4.12,2.02,5855,6371
Ziz,1,10.6,18.5,5959,3860
Ziz,2,3.22,5.06,5587,6167
KaiR1D,1,1.23,7.87,405,5593
CG3558,1,3.63,2.76,6312,6331
CG3558,2,1.67,4.17,6400,6402
CG34286,1,3.04,4.93,6840,7385
CG8087,1,12.4,4.74,5996,6377
CG8087,2,18.5,19.8,5501,5865
